This is a selection; strong and weak results do not stand in their true shares. Some structures show a salt or complex split into parts, the way the source records it. Calls of active or inactive are those of the source. Cut-off read from the data, not from the text of the source: active = inhibition above about 8.5%; inactive = the rest.
Tested on: HIV-1 gp120 / PG9 antibody interaction
Assay: binders of HIV-1 gp120 antibody PG9, primary screen, biochemical, TR-FRET (AID 624416)
Details: TR-FRET gp120-PG9 antibody binding; at 6.7 µM; active compounds read high

SMILES | inhibition
CP(=O)(Nc1ccccn1)Oc1ccc(Cl)cc1 (centres undefined) | inactive: -0.28%
O=[N+]([O-])c1cc([N+](=O)[O-])c(O)c([N+](=O)[O-])c1.c1ccc(Oc2ccncc2)cc1 | inactive: -1.37%
CCOC(=O)c1ccc(NP(C)(=O)Oc2ccc(OC)cc2)cc1 (centres undefined) | inactive: -1.13%
CCOP(C)(=S)SCC(=O)NC(C)C(=O)O (centres undefined) | inactive: 0.3%
Cc1cc(C)cc(OP(C)(=O)Nc2ccc(SC(F)(F)F)cc2)c1 (centres undefined) | inactive: 0.27%
CCc1ccc(OP(C)(=O)N2CCN(c3ccc([N+](=O)[O-])cc3)CC2)cc1 (centres undefined) | inactive: -0.71%
CP(=O)(NC(=O)Nc1ccccc1)Oc1ccccc1 (centres undefined) | inactive: -1.15%
CP(=O)(Oc1ccccc1)OC(c1ccccc1)C(F)(F)F (centres undefined) | inactive: -0.8%
CP(=O)(Nc1ccc(SC(F)(F)F)cc1)Oc1ccc(Cl)cc1 (centres undefined) | inactive: 0.15%
Cc1cccc(C)c1OP(C)(=O)Nc1ccc(SC(F)(F)F)cc1 (centres undefined) | inactive: 0.33%
CP(=O)(Nc1ccccc1Br)Oc1ccccc1 (centres undefined) | inactive: -0.3%
COc1ccccc1OP(C)(=O)Nc1ccccc1 (centres undefined) | inactive: -0.29%
CP(=S)(Nn1cnnc1)Oc1ccccc1 (centres undefined) | inactive: -1.07%
Cc1cc(C)cc(OP(C)(N)=O)c1 (centres undefined) | inactive: 0.38%
COc1ccc(OP(C)(=O)Nc2cccc(F)c2)cc1 (centres undefined) | inactive: -1.09%
COc1ccccc1OP(C)(=O)Nc1cc(Cl)ccc1C (centres undefined) | inactive: -0.48%
Cc1ccc(NP(C)(=O)Oc2ccccc2)c(C)c1 (centres undefined) | inactive: 0.77%
COc1ccccc1OP(C)(=O)Nc1ccc(C)cc1 (centres undefined) | inactive: 0.29%
CCOC(=O)c1ccc(NP(C)(=O)Oc2ccccc2)cc1 (centres undefined) | inactive: -0.53%
O=[N+]([O-])c1ccc2c(c1)C=Nc1ccccc1O2 | inactive: -3.89%
Cc1cccc(C)c1OP(C)(N)=O (centres undefined) | inactive: 0.7%
CC(C)(C)c1ccc(OP(C)(=O)Nc2ccc(SC(F)(F)F)cc2)cc1 (centres undefined) | inactive: 1.9%
O=[N+]([O-])c1cc([N+](=O)[O-])c(Nc2cccnc2)c([N+](=O)[O-])c1 | inactive: 1.25%
COc1ccccc1-c1ccccn1.O=[N+]([O-])c1cc([N+](=O)[O-])c(O)c([N+](=O)[O-])c1 | inactive: -1.5%
CCN(CC)CCCOC(=O)C(O)(c1ccccc1)c1ccccc1 | inactive: -2.51%

SMILES | inhibition
Cc1ccc(C)c(NP(C)(=O)Oc2ccccc2)c1 (centres undefined) | inactive: 0.36%
CP(=O)(Nc1cccc(Br)c1)Oc1ccccc1 (centres undefined) | inactive: -0.91%
Cc1cc(C)cc(OP(C)(=O)Nc2ccccn2)c1 (centres undefined) | inactive: -0.56%
CCOC(=O)c1ccc(NP(C)(=O)Oc2cc(C)cc(C)c2)cc1 (centres undefined) | inactive: -2.46%
Cc1cc(C)cc(OP(C)(=O)Nc2ccc(C)cc2C)c1 (centres undefined) | inactive: -0.28%
COc1ccccc1OP(C)(=O)Nc1cccc(Br)c1 (centres undefined) | inactive: 1.46%
CC1=NCCc2c1[nH]c1ccccc21.O=[N+]([O-])c1cc([N+](=O)[O-])c(O)c([N+](=O)[O-])c1 | inactive: -3.32%
O=C(O)c1cccc(Nc2c([N+](=O)[O-])cc([N+](=O)[O-])cc2[N+](=O)[O-])c1 | inactive: 0.53%
COc1ccc(-c2ccccn2)cc1.O=[N+]([O-])c1cc([N+](=O)[O-])c(O)c([N+](=O)[O-])c1 | inactive: -0.12%
CP(=O)(Nc1ccc(SC(F)(F)F)cc1)Oc1ccccc1 (centres undefined) | inactive: 1.31%
CCCOc1ccc(NP(C)(=O)Oc2ccc(Cl)cc2)cc1 (centres undefined) | inactive: -0.52%
CN1CCCCC1COC(=O)C1(O)c2ccccc2CCc2ccccc21 (centres undefined) | inactive: -0.39%
COc1ccccc1OP(C)(=O)Nc1c(C)cccc1C (centres undefined) | inactive: 0.15%
CCOC(=O)C(CC)C1=NC(C)(C)Cc2ccccc21.O=[N+]([O-])c1cc([N+](=O)[O-])c(O)c([N+](=O)[O-])c1 (centres undefined) | inactive: -1.17%
O=[N+]([O-])c1cc([N+](=O)[O-])c(Nc2nnnn2CCO)c([N+](=O)[O-])c1 | inactive: -1.18%
Cc1nc2ccc3ccccc3c2s1.O=[N+]([O-])c1cc([N+](=O)[O-])c(O)c([N+](=O)[O-])c1 | inactive: -1.14%
O=[N+]([O-])c1cc([N+](=O)[O-])c(-c2cnn(-c3ccccc3)c2)c([N+](=O)[O-])c1 | inactive: -1.03%
CN(Cc1cccnc1)C(=O)COc1ccc(Cl)c(Cl)c1.O=[N+]([O-])c1cc([N+](=O)[O-])c(O)c([N+](=O)[O-])c1 | inactive: 0.18%
O=[N+]([O-])c1cc([N+](=O)[O-])c(-n2nnc3ccccc32)c([N+](=O)[O-])c1 | inactive: -0.63%
Cc1ccccc1NP(C)(=O)Nc1ccccc1C | inactive: -0.19%
O=[N+]([O-])c1cc([N+](=O)[O-])c(C(F)(F)F)c([N+](=O)[O-])c1O | inactive: -0.97%
CP(=O)(Nc1ccc2c(c1)OCCO2)Oc1ccccc1 (centres undefined) | inactive: 0.28%
CCOP(C)(=S)SCC(=O)NC(C)(CC)C(=O)O (centres undefined) | inactive: 0.92%
CCOP(=O)(CC)OCC | inactive: -0.81%
CP(=O)(Nc1ccc(SC(F)(F)F)cc1)Oc1ccc(F)cc1 (centres undefined) | inactive: -1.69%

SMILES | inhibition
Cc1c(C(c2ccc3c(c2)OCO3)c2c(C)n(C)n(-c3ccccc3)c2=O)c(=O)n(-c2ccccc2)n1C.O=[N+]([O-])c1cc([N+](=O)[O-])c(O)c([N+](=O)[O-])c1 | inactive: 0.28%
O=[N+]([O-])c1ccc(OP2(=O)COCCO2)cc1 (centres undefined) | inactive: -0.39%
Cc1cc(-c2cccc3ccccc23)c(C)cn1.O=[N+]([O-])c1cc([N+](=O)[O-])c(O)c([N+](=O)[O-])c1 | inactive: -0.81%
O=[N+]([O-])c1cc([N+](=O)[O-])c(NCC2CCS(=O)(=O)C2)c([N+](=O)[O-])c1 (centres undefined) | inactive: -0.25%
CN(C)CCOC(=O)C(O)(c1ccccc1)C1CCCCC1 (centres undefined) | inactive: 4.37%
COc1ccc(NP(C)(=O)Oc2ccccc2OC)cc1 (centres undefined) | inactive: -0.43%
COc1ccc(OP(C)(=O)Nc2cccc(Br)c2)cc1 (centres undefined) | inactive: -2.17%
CP(=O)(Nc1ccccc1)Oc1ccc(F)cc1 (centres undefined) | inactive: -1.12%
CCCCCOc1ccc(NP(C)(=O)Oc2ccc(Cl)cc2Cl)cc1 (centres undefined) | inactive: -1.43%
O=[N+]([O-])c1cc([N+](=O)[O-])c(OC2CCCCC2O)c([N+](=O)[O-])c1 (centres undefined) | inactive: -0.07%
Cc1c([N+](=O)[O-])cc([N+](=O)[O-])c(Br)c1[N+](=O)[O-] | inactive: -0.12%
CCN(CC)CCCOC(=O)C(O)(c1ccccc1)C1CCCCC1 (centres undefined) | inactive: 0.15%
CCOC(=O)c1ccc(NP(C)(=O)Oc2ccc(F)cc2)cc1 (centres undefined) | inactive: -0.39%
COc1ccc(OP(C)(=O)Nc2ccc(SC(F)(F)F)cc2)cc1 (centres undefined) | inactive: -1.97%
CCN(CC)CCCNc1ccccc1[N+](=O)[O-].O=[N+]([O-])c1cc([N+](=O)[O-])c(O)c([N+](=O)[O-])c1 | inactive: -1.06%
COc1ccc2c(c1O)-c1c(O)c(OC)cc3c1[C@H](C2)[N+](C)(C)CC3.O=[N+]([O-])c1cc([N+](=O)[O-])c([O-])c([N+](=O)[O-])c1[O-] | inactive: -5.92%
O=C(OC1CN2CCC1CC2)c1ccc([N+](=O)[O-])cc1 (centres undefined) | inactive: -0.47%
O=C(OCCN1CCN(CCOCc2ccccc2)CC1)C(O)(c1ccccc1)c1ccccc1 | inactive: 0.62%
CP(=O)(Nc1ccccc1F)Oc1ccccc1 (centres undefined) | inactive: 0.97%
CC(C)c1ccc(OP(C)(=O)Nc2ccc(SC(F)(F)F)cc2)cc1 (centres undefined) | inactive: -1.27%
O=[N+]([O-])c1cc([N+](=O)[O-])c(Nc2ccc(Cl)cc2)c([N+](=O)[O-])c1 | inactive: 1.28%
COc1ccccc1OP(C)(=O)Nc1ccc(C)cc1C (centres undefined) | inactive: -0.02%
CP(=O)(Nc1ccccn1)Oc1ccccc1 (centres undefined) | inactive: -1.87%
CCc1ccc(OP(C)(=O)O)cc1 | inactive: -1.55%
O=[N+]([O-])c1cc([N+](=O)[O-])c(Nc2ccccn2)c([N+](=O)[O-])c1 | inactive: -2.27%

SMILES | inhibition
Cc1c(NP(C)(=O)Oc2ccc(C(C)C)cc2)c(=O)n(-c2ccccc2)n1C (centres undefined) | inactive: -0.58%
COc1ccc(OP(C)(=O)Nc2ccccn2)cc1 (centres undefined) | inactive: 1.29%
CN(C)CCOC(=O)C(O)(c1ccccc1)C1CCCC1 (centres undefined) | inactive: 0.39%
COc1ccccc1OP(C)(=O)Nc1ccc(Br)cc1 (centres undefined) | inactive: 0.78%
CP(=O)(OCCOc1ccccc1)OCCOc1ccccc1 | inactive: -0.62%
CCCCCCCCCCCCCCCC1C[N+](C)(C)CCOP(C)(=O)O1 (centres undefined) | inactive: 1.48%
CP(=O)(Nc1ccc(Cl)cc1Cl)Oc1ccccc1 (centres undefined) | inactive: 0.52%
COc1ccccc1OP(C)(=O)Nc1ccc(C)c(C)c1 (centres undefined) | inactive: 0.78%
COc1ccc(OP(C)(=O)Nc2ccccc2Br)cc1 (centres undefined) | inactive: -1.05%
Cc1cc(C)cc(OP(C)(=O)Nc2cccc(C(F)(F)F)c2)c1 (centres undefined) | inactive: -0.27%
O=C1C(O)=C([N+](=O)[O-])C(=O)C(O)=C1[N+](=O)[O-] | inactive: -2.31%
CCOC(=O)c1ccc(NP(C)(=O)Oc2ccc(Cl)cc2)cc1 (centres undefined) | inactive: -2.48%
CP(=O)(OC12CC3CC(CC(C3)C1)C2)OC12CC3CC(CC(C3)C1)C2 | inactive: 0.57%
Nc1ccc2c(ccc3cccnc32)n1.O=[N+]([O-])c1cc([N+](=O)[O-])c(O)c([N+](=O)[O-])c1 | inactive: -1.37%
CN(C)C(=O)c1c([N+](=O)[O-])cc([N+](=O)[O-])cc1[N+](=O)[O-] | inactive: 0.07%
CC(C)(C)c1ccc(OP(C)(=O)O)cc1 | inactive: -2.77%
COc1ccccc1OP(C)(=O)Nc1ccccc1Br (centres undefined) | inactive: -0.41%
CP(=O)(Nc1ccc(Cl)cc1)Oc1ccc(F)cc1 (centres undefined) | inactive: 1.32%
O=C(OCCCN1CCCC1)C(O)(c1ccccc1)C1CCCCC1 (centres undefined) | inactive: -0.22%
COc1ccccc1OP(C)(=O)Nc1c(C)n(C)n(-c2ccccc2)c1=O (centres undefined) | inactive: -0.18%
CCc1ccc(OP(C)(=O)Nc2cccnc2)cc1 (centres undefined) | inactive: -0.77%
CP(=O)(Oc1ccccc1)N1CCOC1=O (centres undefined) | inactive: -0.3%
COc1ccc(OP(C)(=O)Nc2ccc(Br)cc2)cc1 (centres undefined) | inactive: -0.99%
CCN(CC)CC(O)COC(=O)C(O)(c1ccccc1)C1CCCCC1 (centres undefined) | inactive: 3.6%
